# RC index of single-base changes in HIV-1 Vif

From the data files of Al-Mawsawi et al. 2014, doi:10.1186/s12977-014-0124-6.

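Random point mutant libraries of HIV-1 NL4-3, one for each of seven fragments, were passaged in CEM T lymphocytes. The RC index is the frequency of a change after passage round 2 divided by its frequency in the plasmid library.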

Protein: Vif of HIV-1 NL4-3, numbered from its first residue. The source prints no sequence; the chain below is taken from UniProt P12504, a closely related isolate, and fits the source at the 145 positions it covers.
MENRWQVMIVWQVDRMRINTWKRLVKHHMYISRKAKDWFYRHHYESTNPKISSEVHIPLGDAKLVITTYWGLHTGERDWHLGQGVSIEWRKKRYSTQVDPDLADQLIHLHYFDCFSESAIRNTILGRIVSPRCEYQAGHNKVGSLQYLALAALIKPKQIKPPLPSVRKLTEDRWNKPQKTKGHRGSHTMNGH
"Other frame" gives the effect on an overlapping gene as the source lists it; other overlaps (genes, RNA elements) are not shown.

A higher RC index is a better tolerated change; approximate classes are lethal up to 0.1, attenuated to 0.2, tolerated above.
Each entry names the wild-type residue, its position and the residue put in its place.

| change | base | other frame | RC |
|---|---|---|---|
| S53L | C5198T | none | 1.14 |
| M1L | A5041T | integrase Y271F | 0.0767 |
| M29K | T5126A | none | 0.385 |
| D104G | A5351G | none | 0.0584 |
| C114Y | G5381A | none | 0.142 |
| N190K | T5610A | Vpr W18R | 0.0321 |
| S186T | G5597C | Vpr E13D | 0.134 |
| D14E | C5082A | integrase Q285K | 0.222 |
| N140I | A5459T | none | 0.0253 |
| E134D | A5442T | none | 0.0448 |
| A152V | C5495T | none | 0.0910 |
| T67A | A5239G | none | 0.0268 |
| L145Q | T5474A | none | 0.0200 |
| R17S | G5091T | integrase D288Y | 0.176 |
| L102P | T5345C | none | 0.0967 |
| M189I | G5607C | Vpr E17Q | 0.522 |
| S52R | A5194C | none | 0.0852 |
| R167M | G5540T | none | 0.0387 |
| D61G | A5222G | none | 0.0255 |
| V7L | G5059C | integrase G277A | 0.120 |
| N190K | T5610G | Vpr W18G | 0.200 |
| A149T | G5485A | none | 0.135 |
| N3S | A5048G | integrase silent | 0.0617 |
| H187R | A5600G | Vpr silent | 0.0392 |
| G60E | G5219A | none | 0.209 |
| I57N | T5210A | none | 0.0276 |
| K92T | A5315C | none | 0.119 |
| K34R | A5141G | none | 0.0573 |
| N3I | A5048T | integrase K273N | 0.0729 |
| P164T | C5530A | none | 0.0833 |
| V142A | T5465C | none | 0.0772 |
| Q158K | C5512A | none | 0.144 |
| R121G | A5401G | none | 0.0120 |
| K160N | G5520T | none | 0.0655 |
| S165C | A5533T | none | 0.0352 |
| M1V | A5041G | integrase Y271C | 0.0607 |
| I159T | T5516C | none | 0.100 |
| T74K | C5261A | none | 0.161 |
| M1I | G5043A | integrase G272R | 0.621 |
| Q97R | A5330G | none | 0.0462 |
| L24V | T5110G | none | 0.160 |
| L59P | T5216C | none | 0.154 |
| D99N | G5335A | none | 0.357 |
| I154M | A5502G | none | 0.0746 |
| L169V | C5545G | none | 0.0900 |
| H187Y | C5599T | Vpr P14L | 0.195 |
| L106I | C5356A | none | 0.108 |
| H73L | A5258T | none | 0.0251 |
| H56N | C5206A | none | 0.168 |
| S52N | G5195A | none | 0.0812 |
| V129A | T5426C | none | 0.0553 |
| V98L | G5332C | none | 0.135 |
| G75R | G5263C | none | 0.0409 |
| S186I | G5597T | Vpr E13D | 0.0978 |
| S118F | C5393T | none | 0.237 |
| H80Q | T5280A | none | 0.0387 |
| L163S | T5528C | none | 0.0407 |
| Q83L | A5288T | none | 0.0214 |
| T47I | C5180T | none | 0.0923 |
| L148M | T5482A | none | 0.0304 |
| I128T | T5423C | none | 0.0409 |
| H73N | C5257A | none | 0.0713 |
| Q105H | A5355C | none | 0.0389 |
| D101V | A5342T | none | 0.0311 |
| H187L | A5600T | Vpr silent | 0.0437 |
| S165G | A5533G | none | 0.0365 |
| H28R | A5123G | none | 0.0775 |
| D61N | G5221A | none | 0.0910 |
| K160E | A5518G | none | 0.0410 |
| S186R | A5596C | Vpr E13A | 0.131 |
| E88V | A5303T | none | 0.0464 |
| G75E | G5264A | none | 0.294 |
| N190I | A5609T | Vpr E17D | 0.0350 |
| H139R | A5456G | none | 0.0150 |
| P161Q | C5522A | none | 0.0708 |
| V142I | G5464A | none | 0.139 |
| P162A | C5524G | none | 0.0487 |

Nucleotide positions follow pNL4-3.
Since each clone held several changes (about five per kb), neutral changes can read low.
An index over 1, which the authors read as above wild type, was rare (1.9% of all changes in the genome).